Experimental data reported in patent US9096585B2 (Icahn School of Medicine at Mount Sinai, priority 2010, dated 2015).

Tested on: influenza A virus
Details: influenza A/WSN/33, A549, 10 μM A3 or less

Q: With `Cc1[nH]c2ccc(-c3nnc(SCC(=O)N4CCCC4)o3)cc2c1C` [Compound A3] as the compound, how does the viral titers decreased read?
A: 5 logs
